Results: PubChem BioAssay AID1986 (Sanford-Burnham Center for Chemical Genomics, 2009)
Several values for one entry are separate records, joined by “and”; a condition that tells them apart may be missing. Equal entries are not always repeated. Only a part is listed here, and it is no random draw. Activity calls are given as the source filed them. Rule as the data show it: active = inhibition mostly above about 52% (no sharp cut-off); inactive = mostly below about 76%.

experiment: inhibitors of HIV fusion peptide binding, primary screen, biochemical, uHTS, fluorescence dequenching (AID 1986); settings: HIV Env-mediated cell-cell fusion, fluorescence reporter; at 20 µM; stronger effect = higher value

Structure (SMILES) | inhibition
CCOc1ccc(C2=NCC(CBr)S2)cc1 (configuration not stated) | inactive: -1.4%
O=P1(Nc2nc3ccc(Cl)cc3s2)COc2ccccc2O1 (configuration not stated) | inactive: 1.6%
CC(C)(C)C(=O)NC(Sc1ccccc1)C(Cl)(Cl)Cl (configuration not stated) | inactive: -1%
CC(=O)c1ccc(N2CC2c2ccncc2)cc1 (configuration not stated) | inactive: -1%
C[C@H]1OP(=O)(Oc2ccccc2)C[C@@H]2O[C@@H]21 (some centres not stated) | inactive: 0%
C[C@@H]1C=CCP(=O)(Oc2ccccc2)O1 (some centres not stated) | inactive: -0.2%
CC(=O)Nc1ccc(Oc2c([N+](=O)[O-])cc([N+](=O)[O-])cc2[N+](=O)[O-])cc1 | inactive: 2.7%
CC(=O)Nc1ccc([As](=O)(O)O)c(O)c1 | inactive: 0.4%
O=C(NC1CCS(=O)(=O)C1)NP(=S)(Oc1ccccc1)Oc1ccccc1 (configuration not stated) | inactive: -2.6%
CCNC(=S)/N=C(\N)N[N+](=O)[O-] | inactive: 0.1%
CCOC(=O)NC(Sc1ccccc1)C(Cl)(Cl)Cl (configuration not stated) | inactive: 3.1%
Cc1ccc(NP(=O)(Oc2cccc(C)c2)Oc2cccc(C)c2)nc1 | inactive: 0.5%
c1ccc(-c2nn[nH]n2)c(-c2nn[nH]n2)c1 | inactive: -0.6%
Cc1ccc(OP(=O)(Nc2ccccn2)Oc2ccc(C)cc2)cc1 | inactive: -0.8%
CC(=O)NC(SC(=S)N(CC(C)C)CC(C)C)C(Cl)(Cl)Cl (configuration not stated) | inactive: 1.4%
COC(=O)c1cc2c(s1)N=C(c1ccccc1)N(C)P2(=O)N1CCOCC1 (configuration not stated) | inactive: 1.3%
CCC(=O)N1C2C3N(C(=O)CC)C1C1N(C(=O)CC)C(C(N1C(=O)CC)N3C(=O)CC)N2C(=O)CC | inactive: -1.1%
O=C(OC1CN2CCC1CC2)c1ccccc1 (configuration not stated) | inactive: -0.6%
O=c1c2cc([N+](=O)[O-])ccc2[nH]c2c([N+](=O)[O-])cc([N+](=O)[O-])cc12 | inactive: 27.2%
CN(C)C(=O)Oc1noc2ccccc12 | inactive: -0.2%
Cc1ccccc1OP(=O)(Nc1ccccn1)Oc1ccccc1C | inactive: 1.1%
CN(C)C1(CNC(=O)c2ccc(Cl)c(S(N)(=O)=O)c2)CCCCC1 | inactive: 1.8%
O=P(Nc1ccccn1)(c1ccc(Br)cc1)c1ccc(Br)cc1 | inactive: 1.3%
C[C@H]1OP(=O)(Oc2ccccc2)[C@H](O)[C@H](O)[C@H]1N=[N+]=[N-] (some centres not stated) | inactive: -0.3%
O=P(Nc1nc2ccccc2s1)(c1ccccc1)c1ccccc1 | inactive: 1.3%
O=[N+]([O-])c1ncn(CCn2cnc([N+](=O)[O-])n2)n1 | inactive: 1.3%

Structure (SMILES) | inhibition
CC(=O)NC(SC(=S)N(C)C)C(Cl)(Cl)Cl (configuration not stated) | inactive: -0.8%
O=[N+]([O-])c1ccc(O)c(/C=N/Nc2ccc([N+](=O)[O-])cc2[N+](=O)[O-])c1 | inactive: 15.9%
O=[As](O)(c1ccccc1)c1ccc(O)cc1 | inactive: -2.2%
C(Cc1nn[nH]n1)Cc1nn[nH]n1 | inactive: 0.5%
Nc1ccc([As](=O)(O)c2ccc([N+](=O)[O-])cc2)cc1 | inactive: -1%
O=C(OC1CN2CCC1CC2)c1cccc(Cl)c1 (configuration not stated) | inactive: -2.3%
O=P(Nc1nccs1)(c1ccccc1)c1ccccc1 | inactive: -0.1%
CC(C)C(=O)NC(Sc1ccccc1)C(Cl)(Cl)Cl (configuration not stated) | inactive: 3.4%
c1nnnn1CCn1cnnn1 | inactive: -2%
COc1ccc(C2=NCC(CBr)S2)cc1 (configuration not stated) | inactive: 0.1%
CC(=O)N1C2C3N(C(C)=O)C1C1N(C(C)=O)C(C(N1C(C)=O)N3C(C)=O)N2C(C)=O | inactive: -2.2%
O=[N+]([O-])c1cccc2n[nH]nc12 | inactive: 1.2%
O=[N+]([O-])c1cc([N+](=O)[O-])c(CCNc2ccccc2)c([N+](=O)[O-])c1 | inactive: 19.4%
CCc1nc2c(n1)c1c(non1O)c1c2no[n+]1[O-] | inactive: 4%
Cc1ccc(NP(=O)(Oc2ccccc2)Oc2ccccc2)nc1 | inactive: 1.2%
C[N+]1=C2C=CC=CC=C2SC12C([N+](=O)[O-])=CC([N+](=O)[O-])=C[C-]2[N+](=O)[O-] (configuration not stated) | inactive: 34.9%
Nc1ccc([As](=O)(O)c2ccc(N)cc2)cc1 | inactive: 3.4%
CCN(/C(=N/P(=O)(N1CCOCC1)N1CCOCC1)N1CCOCC1)c1ccc(OC)cc1 | inactive: 0.3%
CN(C)C(=O)OCCc1n(C)cc[n+]1C | inactive: 2.2%
CC(C)=N/N=C(\N)N[N+](=O)[O-] | inactive: -0.4%
CC1CCN(C(=O)Oc2c(Cl)cc(Cl)c3cccnc23)CC1 | inactive: -2%
O=C(Nc1cc([As](=O)(O)O)ccc1O)c1ccccc1 | inactive: 2.7%
CC(C)(C)C(=O)NC(Sc1ccncn1)C(Cl)(Cl)Cl (configuration not stated) | inactive: -1.4%
O=[N+]([O-])c1ncn(CCn2ncnc2[N+](=O)[O-])n1 | inactive: 1.3%
O=[N+]([O-])c1cccc(NC2=NCC(CBr)S2)c1 (configuration not stated) | inactive: -0.5%
O=C(O)CNc1ccc([As](=O)(O)O)cc1 | inactive: 0.5%

Structure (SMILES) | inhibition
CC(=O)Nc1ccc([As](=O)(O)O)cc1 | inactive: 0.7%
O=C(O)c1ccccc1[As](=O)(O)O | inactive: -0.6%
O=P(Nc1nc2ccc(Cl)cc2s1)(c1ccccc1)c1ccccc1 | inactive: 4.6%
Cc1ccc(NP(=O)(Oc2ccccc2F)Oc2ccccc2F)nc1 | inactive: 0.1%
Cc1cc(SC(NC(=O)c2ccc(F)cc2)C(Cl)(Cl)Cl)ncn1 (configuration not stated) | inactive: -0.5%
CCOP(=O)(Nc1ccccc1)OCC | inactive: 2.6% and inactive: 1%
O=[N+]([O-])c1cc([N+](=O)[O-])c(CCN2CCOCC2)c([N+](=O)[O-])c1 | inactive: 33.6%
CCN(N=Nc1nonc1N)c1nonc1N | inactive: 0%
Nc1cccc2ccc([As](=O)(O)O)cc12 | inactive: 42.4%
NC(=O)c1cc([N+](=O)[O-])cc([N+](=O)[O-])c1N | inactive: -1.8%
Cc1ccc(N/C(=N/P(=O)(N2CCOCC2)N2CCOCC2)N2CCOCC2)cc1 | inactive: 0.9%
Cc1ccc(OP(=O)(Nc2nccs2)Oc2ccc(C)cc2)cc1 | inactive: 0.6%
COc1ccccc1OP(=O)(Nc1ccc(C)cn1)Oc1ccccc1OC | inactive: 1.8%
CN1CCCC(OC(=O)C(c2ccccc2)c2ccccc2)C1 (configuration not stated) | inactive: -0.4%
Clc1ccc(Cl)c(NC2=NCC(CBr)S2)c1 (configuration not stated) | inactive: -1.1%
Nc1cc(N)c2nonc2c1[N+](=O)[O-] | inactive: -3.8%
CC(C)CC(=O)NC(Sc1ccc(Cl)cc1)C(Cl)(Cl)Cl (configuration not stated) | inactive: 4.7%
O=C(NC(Sc1ccncn1)C(Cl)(Cl)Cl)c1ccccc1 (configuration not stated) | inactive: 0.5%
Cc1c2non([O-])c-2c(C)[n+](=O)[n+]1[O-] | inactive: 0%
Oc1ccccc1CNc1ccccn1 | inactive: 0.1%
Cc1cc(=O)[nH]c(N[N+](=O)[O-])n1 | inactive: -0.2%
O=C(OC1CN2CCC1CC2)C12CC3CC(CC(C3)C1)C2 (configuration not stated) | inactive: -2.2%
Cc1c2c(nc3ccccc13)SC(C(Cl)Cl)C2 (configuration not stated) | inactive: -1.3%
COc1cc(I)ccc1[As](=O)(O)O | inactive: 0.1%
COc1ccc2nc(NP(=O)(c3ccccc3)c3ccccc3)sc2c1 | inactive: -0.2%
COc1ccc(N/C(=N/P(=O)(N2CCOCC2)N2CCOCC2)N2CCOCC2)cc1 | inactive: -0.6%

Structure (SMILES) | inhibition
C[As](=O)(O)c1cccc(C(=O)O)c1 | inactive: -0.2%
O=[As](O)(c1ccc(O)cc1)c1ccccc1O | inactive: -1.6%
Cc1ccc2nc3c(c(C)c2c1)CC(C(Cl)Cl)S3 (configuration not stated) | inactive: 5.9%
Cc1ccc(OP(=O)(Nc2ccc([N+](=O)[O-])cn2)Oc2ccc(C)cc2)cc1 | inactive: 1.2%
CC(C)c1ccc(OP(=O)(Nc2ccccn2)Oc2ccccc2F)cc1 (configuration not stated) | inactive: -0.6%
ClCCSc1nnc(-c2cccnc2)o1 | inactive: 0.5%
O=[N+]([O-])c1cc([N+](=O)[O-])c(-c2ccn[nH]2)s1 | inactive: 42.9%
CC(C)NC(=O)NP(=O)(Oc1ccccc1)Oc1ccccc1 | inactive: -1.4%
CCN(CC)C(=S)SC(NC=O)C(Cl)(Cl)Cl (configuration not stated) | inactive: -3.4%
CCOC(=O)Nc1ccc([As](=O)(O)O)c(O)c1 | inactive: -2.5%
Cc1cc(SC(NC(=O)c2ccccc2)C(Cl)(Cl)Cl)nc(C(C)C)n1 (configuration not stated) | inactive: -0.3%
CCCCOc1ccc(C(=O)NCC2(N3CCCCC3)CCCCC2)cc1OC | inactive: -0.1%
CCOC(=O)Nc1cccc([As](=O)(O)O)c1 | inactive: -1%
O=[N+]([O-])c1ccc(Nc2ccc(Oc3ccc([N+](=O)[O-])cc3[N+](=O)[O-])cc2)c([N+](=O)[O-])c1 | inactive: -1.9%
Cc1cc(SC(NC=O)C(Cl)(Cl)Cl)ncn1 (configuration not stated) | inactive: -1.9%
O=P(Nc1ccccn1)(c1cccc2ccccc12)c1cccc2ccccc12 | inactive: 0.4%
COP1(=S)c2c(C)nn(CCC#N)c2N=C(c2ccc(F)cc2)N1C (configuration not stated) | inactive: 1.1%
O=C(Nc1ccncc1[N+](=O)[O-])c1ccc([N+](=O)[O-])cc1[N+](=O)[O-] | inactive: -2.5%
O=C(COc1ccccc1)OC1CN2CCC1CC2 (configuration not stated) | inactive: -0.2%
CCOC(=O)c1ccc(NC(=O)C(C)(CCl)SC)cc1 (configuration not stated) | inactive: 1.6%
O=C(OC1CN2CCC1CC2)c1cccc([N+](=O)[O-])c1 (configuration not stated) | inactive: -0.3%
CCC(C)N(CC(C)C)C(=S)SC(NC(C)=O)C(Cl)(Cl)Cl (configuration not stated) | inactive: 0.7%
CCOP(=O)(Nc1ccc(C)cn1)OCC | inactive: 1.3%
CCOP(=O)(NC(=NC(C)c1ccccc1)NC(C)c1ccccc1)OCC (configuration not stated) | inactive: -1.4%
